Data on one molecule can be found in US20230077716A1 (published 2023).

What is called Kd is the concentration at which binding is half-saturated.

Experiment [1] addresses T1, recombinant B/Phuket/3073/2013 NA ectodomain (tetramer) (UniProt P16199 79-465). Nature of the experiment: BLI; kinetic.
Experiment [2] has as its target T1, recombinant B/Phuket/3073/2013 NA …. Nature of the experiment: BLI; equilibrium. (Biolayer interferometry detects binding as a change in optical thickness at a sensor tip.)

B1: 1G05 Fab (Fab, V domains shown)
VH: QVQLQESGPGLVRPSETLSLTCTVSGDSIGGSYWNWIRQPPGKGLQWIGYIYYTGITNYNPSLKSRVTMSLDTSKNQISLKMDSVTAADTALYFCARGDYSGYDRDVQVELMDVWGKGTTVTVSS
VL: DIQMTQSPSSLSASVRDKVTFVCRASQTISIFLNWYQHKPGEAPKLLIYAASRLQSGVPSRFSGSGSGTDFTLTISGLQPEDFATYYCQQSYSAPWTFGQGTKVEIK
In the case of B1, the Kd in experiment [1] came to 1.07 nM; in experiment [2] it was 6.84 nM.
